The list shows a part of the results, in another mix than the full data. Calls of active or inactive are those of the source.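 The calls were made as follows: active = inhibition above the mean of all tested compounds plus 3 SD, set per screening campaign (cut at about 17% in these data); inactive = the rest.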
The compounds below were run on cathepsin L1 (Fasciola hepatica) (assay: Fasciola hepatica cathepsin L1 inhibitors, primary screen, counter-screen for PFM18AAP inhibitor project, biochemical, QFRET, fluorogenic peptide substrate (AID 1906;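 also: 0% = plate median of test compound wells and 100% = 1 µM Z-Phe-Ala-diazomethylketone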)). Conditions: recombinant F. hepatica cathepsin L1, Z-Leu-Arg-MCA fluorescence; at 5.96 µM; hits give high values.

| Compound | inhibition |
| --- | --- |
| CCOC(=O)N1CCC(Nc2cccc(C)c2)CC1 | inactive: 1.66% |
| Cc1ccc(OCC(C)C)c(CN(CCCl)CCCl)c1 | inactive: 1.89% |
| CCOc1ccc(C)cc1CN(CCCl)CCCl | inactive: -2.29% |
| O=C(NCC1(N2CCCCC2)CCCCC1)c1ccc(F)cc1 | inactive: 4.82% |
| COc1ccc(NC2CCN(CCc3ccccc3)CC2)c(OC)c1 | inactive: -3.42% |
| O=C(NCC1(N2CCOCC2)CCCCC1)c1cc2ccccc2o1 | inactive: -2.43% |
| O=C(NCC1(N2CCCCC2)CCCCC1)c1ccc(Cl)nc1 | active: 21.1% |
| Cc1cc(C)cc(N(C(=O)c2ccccc2)C2CCN(C(=O)OC(C)(C)C)CC2)c1 | inactive: 1.31% |
| CCOC(=O)N1CCC(Nc2ccc(OC)cc2)CC1 | inactive: -0.89% |
| O=C(OC1CN2CCC1CC2)C1c2ccccc2Oc2ccccc21 (stereo unspecified) | inactive: 0.7% |
| N#CC1(Nc2ccccc2)CCN(Cc2ccccc2)CC1 | inactive: 8.67% |
| O=C(NCC1(N2CCCCC2)CCCCC1)c1ccc(=O)[nH]c1 | inactive: -0.23% |
| O=C(NCC1(N2CCCCC2)CCCCC1)c1cccs1 | inactive: -2.15% |
| COc1ccc(C(=O)NCC2(N3CCCCC3)CCCCC2)cc1 | active: 49.7% |
| CC(C)(C)OC(=O)N1CCC(N(C(=O)c2ccccc2)c2ccc(F)cc2)CC1 | inactive: -4.75% |
| COc1ccc(C(=O)NCC2(N3CCCCC3)CCCCC2)c(OC)c1OC | inactive: 1.51% |
| CSc1ccccc1C(=O)NCC1(N2CCCCC2)CCCCC1 | active: 45.1% |
| CN1CCC(Nc2cccc(F)c2)CC1 | inactive: 1.09% |
| COc1ccc(CN(CCCl)CCCl)cc1Cl | inactive: 2.74% |

| Compound | inhibition |
| --- | --- |
| CN(C)c1cccc(C(=O)NCC2(N3CCCCC3)CCCCC2)c1 | inactive: 5.97% |
| CC(C)c1ccc(NC2CCN(C(=O)OC(C)(C)C)CC2)cc1 | inactive: -0.85% |
| COc1cc(OC)c(C(=O)NCC2(N(C)C)CCCCC2)cc1OC | inactive: 0.26% |
| O=C(NCC1(N2CCCCC2)CCCCC1)c1cccc(C(F)(F)F)c1 | inactive: 0.37% |
| CN1CCN(CCOC(=O)C(O)(c2ccccc2)c2ccccc2)CC1 | inactive: 3.07% |
| COc1ccc(NC2CCN(C(=O)OC(C)(C)C)CC2)cc1 | inactive: 3.17% |
| COc1cc(C(=O)NCC2(N3CCCCC3)CCCCC2)ccc1OC(F)F | inactive: 8.28% |
| O=C(NCC1(N2CCOCC2)CCCCC1)c1cc(=O)[nH]c2ccccc12 | inactive: -4.92% |
| O=C(NCC1(N2CCCCC2)CCCCC1)c1ccc(OC(F)F)cc1 | active: 50.1% |
| O=C(NCC1(N2CCCCC2)CCCCC1)c1cccc([N+](=O)[O-])c1 | inactive: -2.23% |
| CCN1CCC(Nc2ccc(Cl)cc2)CC1 | inactive: 1.18% |
| N#CC1(Nc2ccccc2)CCN(CCc2ccccc2)CC1 | inactive: -1.56% |
| c1ccc(CN2CCC(Nc3ccccc3)CC2)cc1 | inactive: -4.76% |
| CCCN1CCC(Nc2cc(OC)cc(OC)c2)CC1 | inactive: -3.31% |
| CN(C)C1(CNC(=O)c2cccc(C#N)c2)CCCCC1 | inactive: -1.26% |
| CC(C)(C)OC(=O)N1CCC(N(C(=O)c2ccccc2)c2ccc(Cl)cc2)CC1 | inactive: 2.05% |
| N#Cc1ccc(C(=O)NCC2(N3CCCCC3)CCCCC2)cc1 | inactive: -2.1% |
| N/C(=N\O)c1c(N)no[n+]1[O-] | inactive: 2.16% |
| CCOC(=O)N1CCC(Nc2ccc(C)cc2)CC1 | inactive: 1.15% |

| Compound | inhibition |
| --- | --- |
| O=C(OC1CN2CCC1CC2)C1c2ccccc2C=Cc2ccccc21 (stereo unspecified) | inactive: -5.38% |
| CCc1cc(C(=O)NCC2(N3CCCCC3)CCCCC2)sc1C | inactive: -0.96% |
| COc1ccc(C(=O)NCC2(N3CCOCC3)CCCCC2)cc1OC | inactive: -1.16% |
| CCC(CO)(C(=O)OC1CN2CCC1CC2)c1ccccc1 (stereo unspecified) | inactive: 3.92% |
| COc1cc(OC)cc(C(=O)NCC2(N3CCOCC3)CCCCC2)c1 | inactive: -5.04% |
| COc1cccc(C(=O)N(c2cc(C)cc(C)c2)C2CCN(C(=O)OC(C)(C)C)CC2)c1 | inactive: 6.57% |
| CCCOc1ccc(C)cc1CN(CCCl)CCCl | inactive: -0.03% |
| CN1CCC(Nc2ccc(Cl)cc2)CC1 | inactive: -1.36% |
| CCOc1ncccc1C(=O)NCC1(N2CCOCC2)CCCCC1 | inactive: 1.8% |
| CN1CCC(Nc2ccc(F)c(Cl)c2)CC1 | inactive: -1.48% |
| CCCOc1ccc(C(=O)NCC2(N(C)C)CCCCC2)cc1 | inactive: 1.47% |
| CC(C)(C)OC(=O)N1CCC(Nc2ccccc2)CC1 | inactive: 1.04% |
| O=C(O)C1(Nc2ccccc2)CCN(Cc2ccccc2)CC1 | inactive: -1.46% |
| CCN1CCC(Nc2cccc(F)c2)CC1 | inactive: -3.49% |
| CN(C)c1ccc(C(=O)NCC2(N3CCCCC3)CCCCC2)cc1 | inactive: 1.9% |
| COc1cc(OC)cc(C(=O)NCC2(N3CCCCC3)CCCCC2)c1 | inactive: 12.6% |
| Cc1ccc(C(=O)NCC2(N3CCCCC3)CCCCC2)o1 | inactive: 14.1% |
| Fc1ccccc1NC1CCN(Cc2ccccc2)CC1 | inactive: -2.45% |
